# Results taken from PMC2330087, “Mechanistic Insights into a Novel Exporter-Importer System of Mycobacterium tuberculosis Unravel Its Role in Trafficking of Iron” (PLoS ONE, 2008).
# By UniProt entry, the sequences of proteins in these tests, tags left out. Where a name states a change or a piece, a line headed by the entry shows the natural chain unless it says otherwise. Residues count along the entry.
# UniProt P9WL31: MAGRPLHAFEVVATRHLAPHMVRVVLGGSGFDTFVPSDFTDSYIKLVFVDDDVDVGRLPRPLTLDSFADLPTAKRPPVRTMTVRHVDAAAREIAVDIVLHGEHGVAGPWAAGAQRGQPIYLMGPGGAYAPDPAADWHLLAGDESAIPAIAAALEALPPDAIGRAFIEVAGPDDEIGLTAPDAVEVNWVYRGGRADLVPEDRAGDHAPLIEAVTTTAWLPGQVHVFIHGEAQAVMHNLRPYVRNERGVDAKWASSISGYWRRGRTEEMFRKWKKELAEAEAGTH
# UniProt P9WQJ9, 1-251: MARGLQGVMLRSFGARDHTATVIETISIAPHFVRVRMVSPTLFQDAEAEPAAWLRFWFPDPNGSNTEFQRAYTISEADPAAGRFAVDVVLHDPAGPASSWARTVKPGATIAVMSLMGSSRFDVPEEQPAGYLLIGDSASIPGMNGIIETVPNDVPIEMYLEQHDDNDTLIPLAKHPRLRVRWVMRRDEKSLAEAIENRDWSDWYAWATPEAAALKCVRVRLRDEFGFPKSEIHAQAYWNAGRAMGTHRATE
# Columns and labels:
# rRv2895c = molecular target: T1, rRv2895c (Mycobacterium tuberculosis, UniProt P9WL31)
# T1 construct: gene Rv2895c
# [1] = molecular target: rSBD (N-terminal siderophore binding domain of IrtA, Rv1348) (Mycobacterium tuberculosis, UniProt P9WQJ9)
Substance,Kd (rRv2895c) [µM],Kd [1] [µM]
Fe-cMyco,127,50
cMyco,180,25.5
